Laboratory results reported in ChEMBL document CHEMBL1143382, “Discovery of chiral cyclopropyl dihydro-alkylthio-benzyl-oxopyrimidine (S-DABO) derivatives as potent HIV-1 reverse transcriptase inhibitors with high activity against clinically relevant mutants” (J Med Chem, 2009).

Target: Human immunodeficiency virus type 1 reverse transcriptase (Human immunodeficiency virus 1, UniProt Q72547)
Assay: Dissociation rate constant for binding to HIV1 reverse transcriptase treated for 3 mins by surface plasmon resonance

koff: <= 4 ×10⁵ /s
Structure (SMILES): Cc1cc(C#N)cc(C)c1Oc1nc(Nc2ccc(C#N)cc2)nc(N)c1Br [ETRAVIRINE]
